Test results: article PMC10870823 (mBio, 2023)

Key:
[1] = target: SARS-CoV-2 Spike B.135 (Beta), lacking the final 21 amino acids, on rcVSV-S virions (SARS-CoV-2); assay: cell-based or functional assay
[2] = target: SARS-CoV-2 Spike B.617.2 (Delta), lacking the final 21 amino acids, on rcVSV-S virions (SARS-CoV-2); assay: cell-based or functional assay

B1: FG-10A3 (Family G clone 10A3) human anti-SARS-CoV-2 Spike RBD monoclonal antibody (antibody, V domains shown)
VH: QVQLVESGGGVVQPGRSLRLSCAASGFTFSSYGMNWVRQAPGKGLEWVAIIWYDGNNTYYVDSVKGRFTISRDNSKNTLYLQMNSLRAEDTAVYYCARKDGSKTYYGYYFDYWGQGTLVTVSS
VL: DIQMTQSPSSLSASVGDRVTITCRASQSIHSFLNWYQQKPGKPPNLLIYAASSLQSGLPSRFSGSGSGTDFTLTISSLQPEDFATYYCQQSYITPPTFGHGTKVEIK
notes: also called Family G (FG)-10A3
[1]
  EC50 of neutralisation of rcVSV-S Beta infection of Vero-ACE2/TMPRSS2 cells: 0.011 µg/mL
[2]
  EC50 of neutralisation of rcVSV-S Delta infection of Vero-ACE2/TMPRSS2 cells: 0.00931 µg/mL
